In article PMC8561388 (mBio, 2021):

Tested on: OP^neon/F-[…]
Experiment: Inhibition of compound 3-escape mutant virus
Conditions: Vero-cSLAM cells

Structure (SMILES)	sensitivity of compound 3-escape mutant virus
N#Cc1cccc(NC(=O)Cc2ccccc2)c1 [compound 3, reference compound]	successfully escaped
CC1(C)Cc2cccc(OCC(=O)Nc3nc4ccccc4s3)c2O1 [compound 1]	highly sensitive
